A mixed list of measured activities; the numbers were collected in NIAID ChemDB.

Common to all: host cell toxicity; cells: HepG2; measure: CC50

Rows are shuffled and stem from different studies. CCn is the concentration with n% toxicity to the cells. An empty or dashed field is not shown.

structure | conditions | read by | result
CO[C@H]1C=CC2=CCN3CCc4cc5c(cc4[C@]23C1)OCO5 | - | MTT | 17.6 µg/mL
C=CCOc1ccc(CNC(C)C(O)c2ccccc2)cc1 | - | cell count / luminescence | >21.8 µM
C[C@H]1C(OC(=O)c2ccc([N+](=O)[O-])cc2)O[C@@H]2OC3(C)CCC4[C@H](C)CCC1[C@]42OO3 | - | ATP / luminescence | >23.8 µM
Nc1ncnc2c1ncn2[C@@H]1O[C@H](OCP(=O)(O)O)C=C1F | - | ATP | >2000 µM
COc1ccc(/C=C2/SC(=S)N(N)C2=O)cc1 | - | MTT | >160 µg/mL
CN(C)C(=S)Oc1ccc(Cl)cc1C(=O)Nc1ccc(Cl)cc1 | - | MTT | 83.51 µM
Cc1cc(/C=C2\SC(=O)NC2=O)c(C)n1C1CCCCC1 | - | MTT | >160 µg/mL
Nc1ccn([C@H]2CC[C@@H](CO)O2)c(=O)n1 | - | - | 25 µM
CCN(CC)CCOc1ccccc1C(=O)CCc1ccccc1 | - | cell count / luminescence | >34 µM
O=[N+]([O-])c1ccc(F)c(N=Cc2ccc([N+](=O)[O-])o2)c1 | - | MTT | >80 µg/mL
CCC(=O)OC1O[C@@H]2OC3(C)CCC4[C@H](C)CCC([C@H]1C)[C@]42OO3 | - | ATP / luminescence | >26 µM
COc1cc2c(cc1O)C(OC)CN1CC=C3C=C[C@H](OC)C[C@]321 | - | MTT | 11.4 µg/mL
Nc1nc2c(ncn2[C@H]2C=C[C@@H](CO)O2)c(=O)[nH]1 | - | - | 280 µM
Cc1csc(C(C)(O)c2nnc(Nc3cccc(Br)n3)s2)n1 | - | resazurin / fluorescence | >50 µM
C[C@H]1C(OC(=O)Cc2ccccc2)O[C@@H]2OC3(C)CCC4[C@H](C)CCC1[C@]42OO3 | - | ATP / luminescence | >26 µM
CCCCN(CCCC)CC(O)COc1cccc2ccccc12 | - | cell count / luminescence | 11.5 µM
O=C(/C=C/c1ccco1)Nc1ccc(-c2nc3ccccc3[nH]2)cc1 | - | MTT | 163 µg/mL
O=C(Nc1ccc(C(F)(F)F)cc1)c1cc(Cl)ccc1OC(=O)N(c1ccccc1)c1ccccc1 | - | MTT | >100 µM
O=S(=O)(NCc1ccccc1)c1ccc(-c2cc3ccncc3cc2OC2CCNCC2)s1 | - | ATP / luminescence | 12.6 µM
CN(C)C(=S)Oc1ccc(Cl)cc1C(=O)Nc1ccc(C(F)(F)F)cc1 | - | MTT | 67.29 µM
COC(=O)N[C@H](C(=O)N1CCC[C@H]1c1nc2ccc(-c3csc4c(-c5ccc(-c6cnc([C@@H]7CCCN7C(=O)[C@H](NC(=O)OC)c7ccccc7)[nH]6)cc5)csc34)cc2[nH]1)C(C)C | - | LDH | >100 µM
CN(C(=O)Oc1ccc(Cl)cc1C(=O)Nc1ccc(C(F)(F)F)cc1)c1ccccc1 | - | MTT | >100 µM
Nc1nc(NC2CC2)c2ncn([C@H]3C=C[C@@H](CO)O3)c2n1 | - | - | >500 µM
CN(C)C(=O)Oc1ccc(Cl)cc1C(=O)Nc1ccc(Br)cc1 | - | MTT | 342.5 µM
C/C(=N\OCc1ccc(F)cc1)c1c(C)cc(=O)n(O)c1O | 7 d | MTS | 22 µM
CCCCNCCCCCOc1ccc2ccccc2c1 | - | cell count / luminescence | 12.8 µM
CC(=O)OC(C1CC(C)C(=O)O1)C(C)C1C2C3(O)OC4(CCC12C)C(=CCC1C(C)(C)OC2CC(=O)OC21C4O)C3=O | - | MTT | 7.18 µg/mL
CC(=O)N1C(=O)/C(=C\C(=O)c2ccc([N+](=O)[O-])cc2)c2ccccc21 | - | MTT | >80 µg/mL
O=C(Nc1ccc(Br)cc1)c1cc(Cl)ccc1OC(=O)N(c1ccccc1)c1ccccc1 | - | MTT | >100 µM
Cc1ccc(/C=C/C(=O)c2c(O)cc(C)oc2=O)cc1 | - | MTT | >40 µg/mL
C[C@H]1[C@H](O)[C@@H](C)/C=C/C=C/C=C/C=C/C=C/C=C/C=C/[C@H](O[C@@H]2O[C@H](C)[C@@H](O)[C@H](N)[C@@H]2O)C[C@@H]2O[C@](O)(C[C@@H](O)C[C@@H](O)CC[C@H](O)[C@@H](O)C[C@@H](O)CC(=O)O[C@H]1C)C[C@H](O)[C@H]2C(=O)O | - | MTT | 2.06 µg/mL
C[C@H](Cn1cnc2c(N)ncnc21)OCP(=O)(O)O | - | ATP | 1530 µM
O=c1[nH]c(=S)[nH]c(O)c1C=Nc1cc(Cl)ccc1O | - | MTT | 103.1 µg/mL

The first 4 rows once more:

{"structure": "CO[C@H]1C=CC2=CCN3CCc4cc5c(cc4[C@]23C1)OCO5", "read by": "MTT", "result": "17.6 µg/mL"}
{"structure": "C=CCOc1ccc(CNC(C)C(O)c2ccccc2)cc1", "read by": "cell count / luminescence", "result": ">21.8 µM"}
{"structure": "C[C@H]1C(OC(=O)c2ccc([N+](=O)[O-])cc2)O[C@@H]2OC3(C)CCC4[C@H](C)CCC1[C@]42OO3", "read by": "ATP / luminescence", "result": ">23.8 µM"}
{"structure": "Nc1ncnc2c1ncn2[C@@H]1O[C@H](OCP(=O)(O)O)C=C1F", "read by": "ATP", "result": ">2000 µM"}